Compound potency records, mixed from different reports. Data source: NIAID ChemDB in PubChem.

Common to all: whole-cell or culture tests; agent: Measles virus; cells: VERO; endpoint: EC50

An empty or dashed field is not shown.

structure,strain or isolate,read by,result
Nc1nccc2c1ncn2[C@@H]1C[C@H](CO)[C@@H](O)[C@H]1O,-,cytopathic effect,0.4 µg/mL
CC[C@@H](C(C)C)[C@@H](O)[C@H](O)[C@@H](C)[C@H]1CC[C@H]2[C@@H]3CC(=O)[C@H]4C[C@H](O)[C@H](O)C[C@]4(C)[C@H]3CC[C@]12C,MV/Brazil/001/91,plaque count,42 µM
Nc1ncnc2c1ncn2C[C@@H](O)[C@H](O)C(=O)O,-,cytopathic effect,40 µg/mL
CC[C@@H](C(C)C)[C@H](O)[C@@H](O)[C@@H](C)[C@H]1CC[C@H]2[C@@H]3CC(=O)[C@@]4(O)C[C@@H](O)CC[C@]4(C)[C@H]3CC[C@]12C,MV/Brazil/001/91,plaque count,26 µM
Nc1ncnc2c1ncn2[C@H]1[C@H](O)[C@H](O)[C@]2(CO)O[C@H]12,-,cytopathic effect,0.4 µg/mL
CC[C@@H](C(C)C)[C@@H](O)[C@H](O)[C@@H](C)[C@H]1CC[C@H]2[C@@H]3CC(=O)C4C[C@@H](F)CC[C@]4(C)[C@H]3CC[C@]12C,MV/Brazil/001/91,plaque count,7 µM
NC(=O)c1ncn([C@@H]2O[C@H](CO)[C@@H](O)[C@H]2O)n1,Sugiyama,cytopathic effect,8 µg/mL
NC(=O)c1ncn([C@@H]2O[C@H](CO)[C@@H](O)[C@H]2O)n1,Yamagata-1,plaque count,8.7 µg/mL
O=c1[nH]cnc2c1ncn2[C@@H]1C=C(CO)[C@@H](O)[C@H]1O,-,cytopathic effect,20 µg/mL
NC(=O)c1c[se]c([C@@H]2O[C@H](CO)[C@@H](O)[C@H]2O)n1,Edmonston,cytopathic effect,1 µg/mL
Nc1ccn([C@@H]2C[C@H](CO)[C@@H](O)[C@H]2O)c(=O)n1,-,cytopathic effect,0.7 µg/mL
C[C@@H](O)C1=C[C@@H](n2cnc3c(N)ncnc32)[C@H](O)[C@@H]1O,SSPE Yamagata-1,plaque count,0.12 µg/mL
Nc1ncnc2c1ccn2[C@@H]1O[C@H](CO)[C@H](O)[C@H]1O,-,cytopathic effect,≥40 µg/mL
CC[C@H](/C=C/[C@@H](C)[C@H]1CC[C@H]2[C@@H]3CC=C4C[C@@H](O)CC[C@]4(C)[C@H]3CC[C@]12C)C(C)C,MV/Brazil/001/91,plaque count,117 µM
C#Cc1c(C(N)=O)ncn1[C@@H]1O[C@H](CO)[C@@H](O)[C@H]1O,Sugiyama,plaque count,1.1 µg/mL
O=c1cnn([C@@H]2O[C@H](CO)[C@@H](O)[C@H]2O)c(=O)[nH]1,Kitaken-1,plaque count,0.78 µg/mL
Nc1nccc2c1ncn2[C@@H]1C[C@H](CO)[C@@H](O)[C@H]1O,-,cytopathic effect,0.4 µg/mL
CC[C@@H](C(C)C)[C@@H](O)[C@H](O)[C@@H](C)[C@H]1CC[C@H]2[C@@H]3COC(=O)C4C[C@H](O)[C@H](O)C[C@]4(C)[C@H]3CC[C@]12C,MV/Brazil/001/91,plaque count,8 µM
Nc1ncnc2c1ccn2[C@@H]1C[C@H](CO)[C@@H](O)[C@H]1O,-,cytopathic effect,4 µg/mL
CC1(C)[C@@H](O[C@H]2O[C@H](C(=O)O)[C@@H](O)[C@H](O)[C@H]2O[C@@H]2O[C@H](C(=O)O)[C@@H](O)[C@H](O)[C@H]2O)CC[C@]2(C)[C@H]3C(=O)C=C4[C@@H]5C[C@@](C)(C(=O)O)CC[C@]5(C)CC[C@@]4(C)[C@]3(C)CC[C@@H]12,Sugiyama,plaque count,1000 µg/mL
COC(C)c1cn([C@@H]2O[C@H](CO)[C@@H](O)[C@H]2O)c2ncnc(N)c12,-,cytopathic effect,>40 µg/mL
CC[C@@H](C(C)C)[C@H](O)[C@@H](O)[C@@H](C)[C@H]1CC[C@H]2[C@@H]3CC(=O)[C@H]4C[C@H](O)[C@H](O)C[C@]4(C)[C@H]3CC[C@]12C,MV/Brazil/001/91,plaque count,65 µM
NC(=O)c1ncn([C@@H]2O[C@H](CO)[C@@H](O)[C@H]2O)n1,CAM/RB,plaque count,49.4 µM
Nc1nccc2c1ncn2[C@@H]1O[C@H](CO)[C@@H](O)[C@H]1O,-,cytopathic effect,≥40 µg/mL
Nc1ncnc2c1ncn2[C@@H]1C=C(CO)[C@@H](O)[C@H]1O,-,cytopathic effect,0.04 µg/mL
CC[C@@H](C(C)C)[C@H](O)[C@@H](O)[C@@H](C)[C@H]1CC[C@H]2[C@@H]3CC(=O)[C@H]4C[C@@H](Br)CC[C@]4(C)[C@H]3CC[C@]12C,MV/Brazil/001/91,plaque count,38 µM

The first 2 rows once more:

structure	strain or isolate	read by	result
Nc1nccc2c1ncn2[C@@H]1C[C@H](CO)[C@@H](O)[C@H]1O	-	cytopathic effect	0.4 µg/mL
CC[C@@H](C(C)C)[C@@H](O)[C@H](O)[C@@H](C)[C@H]1CC[C@H]2[C@@H]3CC(=O)[C@H]4C[C@H](O)[C@H](O)C[C@]4(C)[C@H]3CC[C@]12C	MV/Brazil/001/91	plaque count	42 µM

ECn is the concentration giving n% inhibition of infection, replication or growth. Lines come from different laboratories, so protocols vary.